Assay [1] deals with Influenza A virus. Put plainly: Ratio of IC50 for Influenza A virus H1N1 wild type neuraminidase to IC50 for Influenza A virus H1N1 neuraminidase H275Y mutant.
Assay [2] deals with Influenza A virus. Kind of assay: Ratio of IC50 for oseltamivir-resistant Influenza A virus H3N2 wild type neuraminidase to IC50 for oseltamivir-resistant Influenza A virus H3N2 neuraminidase E119V mutant.
The subject of the next assay is Influenza B virus. Put plainly: Ratio of IC50 for Influenza B virus wild type neuraminidase to IC50 for Influenza B virus neuraminidase R152K mutant.

Take `CCOC(=O)C1=C[C@@H](OC(CC)CC)[C@H](NC(C)=O)[C@@H](N)C1` [OSELTAMIVIR]: the Ratio IC50 is 380 with Influenza A virus [1] and 27 in the assay on Influenza A virus [2].

For `CCOC(=O)c1cn(CC)c2ccc(-n3cc(C4=CCCCC4)nn3)cc2c1=O`, the Ratio IC50 in the assay with Influenza B virus was 1.4; in the assay on Influenza A virus [1], 3; in the assay with Influenza A virus [2] it was 0.13.

These data come from ChEMBL document CHEMBL3739372 (Bioorg Med Chem, 2015).
